Experimental data published in publication PMC5035961.

Columns and labels:
[1] = system: B/NP (influenza B nucleoprotein) (Influenza B virus B/Memphis/13/03); assay: fluorescence anisotropy; conditions: 5' phosphate, recombinant protein, label: 3' FAM
[2] = system: B/NP (influenza B nucleoprotein) (Influenza B virus B/Memphis/13/03); assay: SEC-MALLS; conditions: 5' phosphate, 3' OH; recombinant protein; letters put together from the description

UCUCUCUC [8-nt polyUC RNA]
binding result ([1]; 50 mM NaCl, letters put together from the description): binds

UCUCUCUCUCUC [12-nt polyUC RNA, (UC)6-FAM3']
binding result ([1]; 50 mM NaCl): binds

UCUCUCUCUCUCUCUCUCUCUCUC [24-nt polyUC RNA, unlabelled]
binding result [2]: binds

UCUCUCUCUCUCUCUCUCUCUCUC [24-nt polyUC RNA]
binding result ([1]; 50 mM NaCl, lower affinity than A/NP, letters put together from the description): binds
binding result ([1]; 150 mM NaCl, no change with salt, letters put together from the description): binds
binding result ([1]; 300 mM NaCl, no change with salt, letters put together from the description): binds

The exact form of at least one protein or probe is not confirmed. At least one verdict rests on a figure or table, not on a statement of the authors.
